Fold change is the IC50 on the isolate divided by the IC50 on a reference virus; 1 = unchanged, higher = more resistant. Changes are given against the subtype B consensus. No active / inactive call. The values were gathered from many studies (numbered anew) with different assays, which the source does not name. Most viruses are clinical isolates; some are laboratory strains or clones with known resistance changes. Isolates with mixed residues are left out; stretches that were not sequenced show no change. Round top values that many isolates share are read here as limits; other very high values and 0.1 may be limits too.
How the values were obtained:
Test in all cases: fold change of IC50 against reference virus; higher = more resistant
didanosine = compound: O=c1[nH]cnc2c1ncn2[C@H]1CC[C@@H](CO)O1 [didanosine]
Description: (§1)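 Cell-culture drug susceptibility tests of virus bearing the reverse transcriptase of each isolate, gathered from many studies.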

zalcitabine = compound: Nc1ccn([C@H]2CC[C@@H](CO)O2)c(=O)n1 [zalcitabine]
Description: as §1

zidovudine = compound: Cc1cn([C@H]2C[C@H](N=[N+]=[N-])[C@@H](CO)O2)c(=O)[nH]c1=O [zidovudine]
Description: as §1

nevirapine = compound: Cc1ccnc2c1NC(=O)c1cccnc1N2C1CC1 [nevirapine]
Description: as §1

abacavir = compound: Nc1nc(NC2CC2)c2ncn([C@H]3C=C[C@@H](CO)C3)c2n1 [abacavir]
Description: as §1

delavirdine = compound: CC(C)Nc1cccnc1N1CCN(C(=O)c2cc3cc(NS(C)(=O)=O)ccc3[nH]2)CC1 [delavirdine]
Description: as §1

efavirenz = compound: O=C1Nc2ccc(Cl)cc2[C@@](C#CC2CC2)(C(F)(F)F)O1 [efavirenz]
Description: as §1

stavudine = compound: Cc1cn([C@H]2C=C[C@@H](CO)O2)c(=O)[nH]c1=O [stavudine]
Description: as §1

Test System	fold change of IC50 against reference virus (didanosine)	fold change of IC50 against reference virus (zalcitabine)	fold change of IC50 against reference virus (zidovudine)	fold change of IC50 against reference virus (nevirapine)	fold change of IC50 against reference virus (abacavir)	fold change of IC50 against reference virus (delavirdine)	fold change of IC50 against reference virus (efavirenz)	fold change of IC50 against reference virus (stavudine)
HIV-1 isolate 449 (reverse transcriptase changes: L74V K102Q S162C, study 39)	6	14	–	–	–	–	–	–
HIV-1 isolate 75 (reverse transcriptase changes: K65R S68G K122E F214L A272P K277R A376T A400T D460N S468T H483Y K512Q S519N, study 141)	4.4	6	1.6	–	–	–	–	–
HIV-1 isolate 218 (reverse transcriptase changes: T39A E40F M41L K43E N54I D67N S68G V75M W88C G190A R211K T215Y K219Q K223Q, study 88)	3.2	–	–	54	12	0.1	2.5	–
HIV-1 isolate 1645 (reverse transcriptase changes: K122E F214L A272P K277R M357T A376T A400T N447S D460N S468T S519N, study 102)	1	1	1	–	–	–	–	–
HIV-1 isolate 517 (reverse transcriptase changes: K102Q Q151M S162C M184V K277R, study 59)	6.8	–	2.1	1.5	20.9	1.5	1.2	2.4
HIV-1 isolate 1228 (reverse transcriptase changes: T69D K102Q S162C T165I K277R I293V R358K V435I S468P K550G, study 142)	1	4	1	–	–	–	–	–
HIV-1 isolate 397 (reverse transcriptase changes: K122E F214L A272P K277R A376T A400T K451R V458L D460N R461K S468P D471N H483Y K512Q S519N E529Q V559I, study 74)	1	1	1	–	–	–	–	–
HIV-1 isolate 1029 (reverse transcriptase changes: V35T D67N T69D K70R L100I K102R K103N I135L E169D K173A Q174K I178L Q207A R211K T215F K219Q L228H V245Q E248D A272P T286A E291D V292I E297T, study 109)	1.2	–	82	108	1.7	–	250	2.4
HIV-1 isolate 488 (reverse transcriptase changes: D67N T69D K102Q S162C L210W T215Y K277R I293V R358K V435I S468P K550G, study 142)	1.5	3.6	100	–	–	–	–	–
HIV-1 isolate 1199 (reverse transcriptase changes: V75I F77L K102Q Q151M S162C K277R, study 9)	100	–	–	2	50	–	2	100
HIV-1 isolate 1134 (reverse transcriptase changes: V35M T39A E40F M41L K43E D67N K103S V118I K122E R172K D177E I178F G190A Q207N L210W R211K T215Y K219R K238T A272P T286A I293V, study 15)	4.4	–	555	218	20	–	85	20
HIV-1 isolate 580 (reverse transcriptase changes: L92I K122E D123S R211K V245M I326V I329L R358K T377I K390R T403M R461K L469I, study 103)	0.8	1	0.4	–	–	–	–	–
HIV-1 isolate 936 (reverse transcriptase changes: K122E F214L A272P K277R A376T A400T D460N S468T H483Y K512Q S519N, study 74)	1	1	0.4	–	–	–	–	–
HIV-1 isolate 895 (reverse transcriptase changes: K65R K122E F214L A272P K277R A376T A400T D460N S468T H483Y K512Q S519N, study 141)	8.6	4	1	–	–	–	–	–
HIV-1 isolate 669 (reverse transcriptase changes: K122E F214L T215Y A272P K277R A376T A400T D460N S468T H483Y K512Q S519N, study 51)	1.3	1	20	–	–	–	–	–
HIV-1 isolate 1549 (reverse transcriptase changes: K122E F214L A272P K277R A376T A400T D460N S468T H483Y K512Q S519N, study 141)	1	1	1	–	–	–	–	–
HIV-1 isolate 265 (reverse transcriptase changes: K122E M184V F214L A272P K277R A376T A400T D460N S468T H483Y K512Q S519N, study 74)	5.4	5	0.5	–	–	–	–	–
HIV-1 isolate 1324 (reverse transcriptase changes: D67N T69D K102Q S162C T215Y K277R I293V R358K V435I S468P K550G, study 142)	1	4	8.8	–	–	–	–	–
HIV-1 isolate 557 (reverse transcriptase changes: T69D K102Q S162C K277R I293V R358K V435I S468P K550G, study 142)	1.1	5.4	1	–	–	–	–	–
HIV-1 isolate 405 (reverse transcriptase changes: D67N K102Q S162C T215Y K277R I293V R358K V435I S468P K550G, study 142)	1.3	1.3	8.1	–	–	–	–	–
HIV-1 isolate 36 (reverse transcriptase changes: L74V K122E F214L T215Y A272P K277R A376T A400T D460N S468T H483Y K512Q S519N, study 51)	8.6	15	1.7	–	–	–	–	–
HIV-1 isolate 1556 (reverse transcriptase changes: T69D K102Q S162C L210W T215Y K277R I293V R358K V435I S468P K550G, study 142)	1	2	1.7	–	–	–	–	–
HIV-1 isolate 914 (reverse transcriptase changes: K103R K122E F214L A272P K275R K277R K350R A376T A400T D460N S468T H483Y K512Q S519N, study 102)	1	1	1	–	–	–	–	–
HIV-1 isolate 1037 (reverse transcriptase changes: K102Q Q151M S162C K277R, study 9)	5.1	–	4.7	–	3.5	–	–	9.2
HIV-1 isolate 1447 (reverse transcriptase changes: A62V V75I F77L F116Y V118I Q151M K166R I202V, study 77)	22	250	675	–	–	–	–	–
HIV-1 isolate 657 (reverse transcriptase changes: K122E S156A R172K S251R A272P K277R A376T A400T N447S D460N S468T, study 103)	0.4	1	0.2	–	–	–	–	–
HIV-1 isolate 1143 (reverse transcriptase changes: M41L D67N T69D K102Q S162C L210W T215Y K277R I293V R358K V435I S468P K550G, study 142)	0.8	1	98	–	–	–	–	–
HIV-1 isolate 567 (reverse transcriptase changes: V35I M41L E44D D67N T69D K102R K104N V118I K122E Q207E L210W R211K T215Y L246P, study 142)	1	4	67	–	–	–	–	–
HIV-1 isolate 1026 (reverse transcriptase changes: M41L K102Q S162C M184V T215Y K277R, study 59)	1.3	–	1.7	0.4	6.9	0.1	0.3	1.3
HIV-1 isolate 323 (reverse transcriptase changes: M41L K43Q S68G V118I M184V Q207E L210W R211K T215Y L228H K277R T286A I293V E297K, study 119)	1.7	–	5.5	0.3	5.5	0.2	–	1.7

— the supplement of paper PMC3578754
